This is one part of the list. Entries with a potency or affinity are not part of this list. Activity calls are given as the source filed them. No stated cut-off is given here; in the data, inconclusive means inhibition above about 27% without an active follow-up result; inactive means below that.

The experiment can be described thus: H1N1 influenza NS1A inhibitors, functional cell based assay (AID 504329). The settings on record: percent inhibition, at 12.5 µM, stronger effect = higher value.
On to `CCOC(=O)N1CCC(Nc2cccc(C)c2)CC1`, for which the inhibition – broadly, the change of the read-out against control, counted positive when it falls – was inactive: -5.46%.

For the compound `COc1cc(C(=O)NCC2(N(C)C)CCCCC2)ccc1OC(F)F`, the inhibition was inactive: 7.1%.

Turning to `CCOc1ccc(C)cc1CN(CCCl)CCCl`, the inhibition is inactive: 8.07%.

Take `O=C1CCN(Cc2ccccc2)CC1`: the inhibition is inactive: 3.92%. On to `O=P1(N(CCCl)CCCl)SCCCS1`, for which the inhibition is inactive: -0.44%. With `CCCCOc1ccc(C(=O)NCC2(N3CCOCC3)CCCCC2)cc1`, the inhibition was inactive: 1.57%. For `O=C(NCC1(N2CCCCC2)CCCCC1)c1ccc(F)cc1`, the inhibition is inactive: 0.95%. For `COc1ccc(NC2CCN(CCc3ccccc3)CC2)c(OC)c1`, the inhibition is inactive: 27.4%. To `CCOC(=O)N1CCC(Nc2ccc(F)cc2)CC1` belongs inactive: -4.96%; to `O=C(NCC1(N2CCOCC2)CCCCC1)c1cc2ccccc2o1`, inactive: -15.6%; to `O=C(NCC1(N2CCCCC2)CCCCC1)c1ccc(Cl)nc1`, inactive: -1.85%. As to `Cc1cc(C)cc(N(C(=O)c2ccccc2)C2CCN(C(=O)OC(C)(C)C)CC2)c1`, the inhibition is inactive: -2.36%.

As for `CCOC(=O)N1CCC(Nc2ccc(OC)cc2)CC1`, the inhibition was inactive: -6.15%. For `N#CC1(Nc2ccccc2)CCN(Cc2ccccc2)CC1`, the inhibition was inactive: -18.8%. Turning to `O=C(NCC1(N2CCCCC2)CCCCC1)c1ccc(Cl)s1`, the inhibition is inactive: -1.25%. On to `O=C(OC1CN2CCC1CC2)C1c2ccccc2Oc2ccccc21` (centres undefined), for which the inhibition is inactive: -12.7%. For `COc1ccc(Cl)cc1C(=O)NCC1(N2CCOCC2)CCCCC1` the value was inactive: -0.91%; for `O=C(NCC1(N2CCCCC2)CCCCC1)c1ccc(=O)[nH]c1`, inactive: -1.6%.

In the case of `O=C(NCC1(N2CCCCC2)CCCCC1)c1cccs1`, the inhibition was inactive: -1.1%.

In the case of `COc1ccc(C(=O)NCC2(N3CCCCC3)CCCCC2)cc1`, the inhibition is inactive: 3.04%. `CC(C)(C)OC(=O)N1CCC(N(C(=O)c2ccccc2)c2ccc(F)cc2)CC1`: the inhibition is inactive: -1.73%. For `COc1ccc(C(=O)NCC2(N3CCCCC3)CCCCC2)c(OC)c1OC`, the inhibition was inactive: -0.317%. Consider `CSc1ccccc1C(=O)NCC1(N2CCCCC2)CCCCC1`, for which the inhibition is inactive: -2.28%. For the compound `Cc1cccc(NC2(C#N)CCN(Cc3ccccc3)CC2)c1`, the inhibition was inactive: -15.7%. Turning to `CN1CCC(Nc2cccc(F)c2)CC1`, the inhibition was inactive: 2.04%. To `O=C(NCC1(N2CCCCC2)CCCCC1)c1cncc(Br)c1` belongs inactive: 2.79%; to `CCCOc1ccc(C(=O)NCC2(N(C)C)CCCCC2)cc1OC`, inactive: -13%; to `COc1ccc(CN(CCCl)CCCl)cc1Cl`, inactive: 1.53%.

As to `CN(C)c1cccc(C(=O)NCC2(N3CCCCC3)CCCCC2)c1`, the inhibition was inactive: 2.25%. Take `CC(C)c1ccc(NC2CCN(C(=O)OC(C)(C)C)CC2)cc1`: the inhibition is inactive: 8.62%. Take `COc1cc(OC)c(C(=O)NCC2(N(C)C)CCCCC2)cc1OC`: the inhibition is inactive: -6.07%. For `O=C(NCC1(N2CCOCC2)CCCCC1)c1cc(F)c(F)cc1Cl` the value was inactive: -17%.

Consider `O=C(NCC1(N2CCCCC2)CCCCC1)c1cccc(C(F)(F)F)c1`, for which the inhibition is inactive: -3.48%. Regarding `CN1CCN(CCOC(=O)C(O)(c2ccccc2)c2ccccc2)CC1`, the inhibition is inactive: -0.58%.

`CC(C)c1ccc(C(=O)NCC2(N3CCOCC3)CCCCC2)cc1`: the inhibition is inactive: -6.58%.

For `COc1ccc(NC2CCN(C(=O)OC(C)(C)C)CC2)cc1`, the inhibition was inactive: -6.32%.

On to `COc1cc(C(=O)NCC2(N3CCCCC3)CCCCC2)ccc1OC(F)F`, for which the inhibition was inactive: 8.98%.

`O=C(NCC1(N2CCOCC2)CCCCC1)c1cc(=O)[nH]c2ccccc12`: the inhibition was inactive: -5.54%.

As for `O=C(NCC1(N2CCCCC2)CCCCC1)c1ccc(OC(F)F)cc1`, the inhibition was inactive: 10.1%. As to `CSc1ccc(C(=O)NCC2(N3CCOCC3)CCCCC2)cc1`, the inhibition was inactive: -0.9%. For `O=C(NCC1(N2CCCCC2)CCCCC1)c1cccc([N+](=O)[O-])c1`, the inhibition is inactive: 1.03%. With `CCN1CCC(Nc2ccc(Cl)cc2)CC1`, the inhibition is inactive: -4.08%.

With `N#CC1(Nc2ccccc2)CCN(CCc2ccccc2)CC1`, the inhibition is inactive: -2.09%. As for `c1ccc(CN2CCC(Nc3ccccc3)CC2)cc1`, the inhibition is inactive: -2.82%. To `Cc1cc(N(CCCl)CCCl)ccc1C=O` belongs inactive: -21.8%; to `CCCN1CCC(Nc2cc(OC)cc(OC)c2)CC1`, inactive: 1.23%; to `CN(C)C1(CNC(=O)c2cccc(C#N)c2)CCCCC1`, inactive: -3.88%.

In the case of `CC(C)(C)OC(=O)N1CCC(N(C(=O)c2ccccc2)c2ccc(Cl)cc2)CC1`, the inhibition is inactive: 13.9%. Turning to `N#Cc1ccc(C(=O)NCC2(N3CCCCC3)CCCCC2)cc1`, the inhibition was inactive: 1.61%.

`N/C(=N\O)c1c(N)no[n+]1[O-]`: the inhibition was inactive: -8.93%. For `CCOC(=O)N1CCC(Nc2ccc(C)cc2)CC1`, the inhibition was inactive: -3.37%. Consider `O=C(OC1CN2CCC1CC2)C1c2ccccc2C=Cc2ccccc21` (centres undefined), for which the inhibition is inactive: 1.86%.

For `O=C(NCC1(N2CCOCC2)CCCCC1)c1cc(Br)ccc1Cl`, the inhibition is inactive: -1.7%.

As for `COc1cc(C(=O)NCC2(N3CCOCC3)CCCCC2)cc(OC)c1C`, the inhibition is inactive: -10.7%. For the compound `COc1ccc(C(=O)NCC2(N3CCOCC3)CCCCC2)cc1OC`, the inhibition is inactive: 2.13%. As for `CCC(CO)(C(=O)OC1CN2CCC1CC2)c1ccccc1` (centres undefined), the inhibition was inactive: -23.1%. For `COc1cc(OC)cc(C(=O)NCC2(N3CCOCC3)CCCCC2)c1`, the inhibition was inactive: -8.78%. As for `COc1cccc(C(=O)N(c2cc(C)cc(C)c2)C2CCN(C(=O)OC(C)(C)C)CC2)c1`, the inhibition is inactive: -1.43%.

Regarding `CN1CCC(Nc2ccc(Cl)cc2)CC1`, the inhibition was inactive: -4.14%. Take `CCOc1ncccc1C(=O)NCC1(N2CCOCC2)CCCCC1`: the inhibition was inactive: -2.66%. Turning to `CN1CCC(Nc2ccc(F)c(Cl)c2)CC1`, the inhibition was inactive: 5.2%. For the compound `CCCOc1ccc(C(=O)NCC2(N(C)C)CCCCC2)cc1`, the inhibition was inactive: -20.6%. For the compound `CC(C)(C)OC(=O)N1CCC(Nc2ccccc2)CC1`, the inhibition is inactive: 4.23%.

Regarding `O=C(O)C1(Nc2ccccc2)CCN(Cc2ccccc2)CC1`, the inhibition is inactive: -0.04%. Consider `Cc1ccccc1NC1(C#N)CCN(Cc2ccccc2)CC1`, for which the inhibition was inactive: -19.2%. Turning to `CCN1CCC(Nc2cccc(F)c2)CC1`, the inhibition is inactive: -4.04%. In the case of `O=C(NCC1(N2CCCCC2)CCCCC1)c1ccco1`, the inhibition is inactive: -3.73%.

As to `CN(C)c1ccc(C(=O)NCC2(N3CCCCC3)CCCCC2)cc1`, the inhibition is inactive: -0.11%.

For `Cn1c(=O)[nH]cc(N(CCCl)CCCl)c1=O`, the inhibition is inactive: -16.3%. For `COc1cc(OC)cc(C(=O)NCC2(N3CCCCC3)CCCCC2)c1`, the inhibition is inactive: 8.61%. To `CC(=O)N(c1ccccc1)C1CCNCC1` belongs inactive: 0.82%; to `Cc1ccc(NC2(C#N)CCN(Cc3ccccc3)CC2)cc1`, inactive: 1.13%; to `Cc1ccc(C(=O)NCC2(N3CCCCC3)CCCCC2)o1`, inactive: -7.48%. In the case of `Fc1ccccc1NC1CCN(Cc2ccccc2)CC1`, the inhibition is inactive: 1.02%.

Source of the values: PubChem BioAssay AID504329 (Southern Research Specialized Biocontainment Screening …, 2011).
